According to US20050191315A1 (priority 2002, published 2005):

How the values were obtained:
[1] = tested on: proximal kidney cells; assay: Toxin-induced apoptosis of proximal kidney cells in vitro
[2] = Antibody production after in vivo administration of SEB peptide; details: both IP and oral
[3] = tested on: toxin induced lethality; assay: Toxin induced lethality, whole animal toxic shock model

For KKKVTAQELD, the “toxin-induced apoptosis of proximal kidney cells” value [1] was “reduction in toxin-induced apoptosis of proximal kidney cells”, the antibody production [2] was “results in antibody production” and the toxin induced lethality [3] was “reduced toxin induced lethality”.
